This data set concerns the target T1, Fur (ferric uptake regulator) (Neisseria gonorrhoeae F62) (UniProt Q51008).
T1 sequence (looked up, limits assumed): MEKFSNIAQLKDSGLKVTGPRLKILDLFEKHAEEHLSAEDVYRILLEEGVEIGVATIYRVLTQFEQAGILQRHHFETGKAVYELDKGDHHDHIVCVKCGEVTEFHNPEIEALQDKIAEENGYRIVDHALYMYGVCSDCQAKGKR
As to the kind of experiment: competition with a labelled probe. The following applies: cold fur competitor 50-1000x against fur, NGO0073 and NGO0101 probes (EMSA); 5' amino-C6 on strand 1 (IRIS); 20 mM Tris-Cl pH 7.9, 5 mM MgCl2, 40 mM KCl, 0.125 mM MnCl2, 2 mM DTT, 10% glycerol, 0.19 ug/uL poly dIdC (EMSA also 3.125 ug/uL BSA), RT; IRIS 2 hr; recombinant protein; label: surface-immobilized (IRIS), 32P (EMSA). In general terms: Mobility shift assays separate free from complexed probe on a gel.

Construct, isoform or probe ends are uncertain for at least one entry. At least one verdict rests on a figure or table, not on a statement of the authors. Protein sequences can lack the tags named with them.

Turning to “CTGCTTGAATATTTTATAAAAGCGAACGATAATCATACGCTTAAGCGGT (double strand) [fur promoter Fur box probe]”, the binding result is given as “binds”.
